{"source": "paper PMC6099652", "system": "HlyU", "assay": "EMSA", "details": "HlyU 25-300 nM, 3 nM probe, two shifts at higher concentrations; 1x buffer: 100 mM HEPES pH 7.6, 5 mM EDTA, 50 mM (NH4)2SO4, 5 mM DTT, 1% Tween 20, 150 mM KCl; 20 min at 25 ± 2 °C; 6% DNA retardation gel; recombinant protein; residues 1-97; protein details: N-terminal His6 (pProEx-HTb); label: 32P; probe letters rebuilt from the primers and the genome", "note": "Construct, isoform or probe ends are uncertain for at least one entry."}
{"sequence": "TCAAAAACGCTGCAATAAACATCGGCTAAGTAATTTAATTATGTCCAACAATGAAGGGTTGACGCTGATATGTATTCACTTTTATTTAAGTATCATCAGCGGTAATAGAGAACAATTTAAAGAAAATGCTAATTTAACAAAAACTAATAATTACAAAGATGAACTCGAAAAAATACAAAAAGCAAACAAAGTAAGAATAACCACAAAACATTCACAATTTAAAAACATAGAGAAAATAAAAACACCCGCCATTTTATTTGA (double strand) [PrtxA1 261 bp probe]", "values": [{"measurement": "binding result", "value": "binds"}]}
